Pooled drug test results. Numbers come from NIAID ChemDB, via PubChem.

All rows: whole-cell or culture tests; species: Sindbis virus

An empty or dashed field is not shown. ECn: concentration that inhibits the pathogen or its effect by n%. Neighbouring rows are from separate reports.

| SMILES | cells | endpoint | read by | result |
|---|---|---|---|---|
| COC(=O)[C@]1(C)CCC[C@]2(C)c3cc(Br)c4nc[nH]c4c3CCC12 | VERO | EC50 | plaque count | >4 µg/mL |
| Nc1ncnc2c1ncn2CC[C@H](O)CCO | VERO | EC50 | cytopathic effect | >400 µg/mL |
| Nc1ncnc2c1ncn2[C@H]1C[C@H](O)[C@@H](C=O)O1 | VERO | EC50 | cytopathic effect | >200 µg/mL |
| Nc1ncnc2c1ncn2[C@@H]1O[C@H](CO)[C@](O)(C(F)(F)F)[C@H]1O | VERO | EC50 | cytopathic effect | >200 µg/mL |
| C=C(N=CC)c1nc(-c2ccc(C)cc2)n([C@@H]2O[C@H](CO)[C@@H](O)[C@H]2O)n1 | VERO | EC50 | cytopathic effect | >40 µg/mL |
| CC1(CO)CCC(Cn2cnc3c(N)nc(N)nc32)C1(C)C | VERO | EC50 | cytopathic effect | >40 µg/mL |
| COC(=O)Nc1nc2c3c(ccc2[nH]1)[C@@]1(C)CCC[C@@](C)(C(=O)OC)C1CC3 | VERO | EC50 | plaque count | >4 µg/mL |
| Cc1cn(C(CF)CCCO)c(=O)[nH]c1=O | VERO | EC50 | cytopathic effect | >400 µg/mL |
| NC1=CC(c2ccccc2)=Nn2c(nnc2-c2cn(-c3ccccc3)nc2-c2ccccc2)S1 | VERO | EC50 | cytopathic effect | >16 µg/mL |
| Cc1cn([C@@H]2O[C@H](CO)[C@](O)(C(F)(F)F)[C@H]2O)c(=O)[nH]c1=O | VERO | EC50 | cytopathic effect | >200 µg/mL |
| CC=NC(=N)c1nc(-c2cccc(OC)c2)n(COCCO)n1 | VERO | EC50 | cytopathic effect | >100 µg/mL |
| CCCCCCCCCCCCCCCC(=O)OC[C@H]1O[C@H](OC(=O)NS(=O)(=O)OC[C@H]2O[C@@H](n3ccc(=O)[nH]c3=O)[C@H](OC(C)C)[C@@H]2OC(C)C)[C@H](OC(=O)CCCCCCCCCCCCCCC)[C@@H](OC(=O)CCCCCCCCCCCCCCC)[C@@H]1OC(=O)CCCCCCCCCCCCCCC | VERO | EC50 | plaque count | >100 µg/mL |
| CC1=Nn2c(nnc2-c2cn(-c3ccccc3)nc2-c2ccccc2)SC1 | VERO | EC50 | cytopathic effect | >16 µg/mL |
| CO[C@H](CO)[C@@H](O)CCn1cnc2c(N)ncnc21 | VERO | EC50 | cytopathic effect | >400 µg/mL |
| CC1(CO)CCC(Cn2cnc3c(Cl)nc(N)nc32)C1(C)C | VERO | EC50 | cytopathic effect | >200 µg/mL |
| N#Cc1cncc([C@H]2O[C@H](CO)[C@@H](O)[C@@H]2O)c1 | VERO | EC50 | cytopathic effect | ≥100 µg/mL |
| CC1(C)[C@@H](CO)CC[C@@]1(C)Cn1nnc2c(=O)[nH]cnc21 | VERO | EC50 | cytopathic effect | >400 µg/mL |
| C=CCc1nc(C)n2c(=O)[nH]c(=S)[nH]c12 | VERO | EC50 | cytopathic effect | >200 µg/mL |
| CC1(C)[C@@H](CCO)C[C@H]1n1cnc2c(=O)[nH]cnc21 | VERO | EC50 | cytopathic effect | >400 µg/mL |
| CC(C)CS[C@@H]1C[C@H](n2cnc3c(N)ncnc32)[C@@H](O)[C@H]1O | HeLa | EC50 | cytopathic effect | >80 µg/mL |
| Cc1nc(C(C)C)c2[nH]c(=S)[nH]c(=O)n12 | VERO | EC50 | cytopathic effect | >200 µg/mL |
| C=C(N=CC)c1nc(-c2cccc(OC)c2)n(C2O[C@H](CO)[C@@H](O)[C@H](O)[C@H]2O)n1 | VERO | EC50 | cytopathic effect | >200 µg/mL |
| [N-]=[N+]=NC(CBr)c1cc([C@H]2C[C@H](O)[C@@H](CO)O2)c(F)cc1F | VERO | EC50 | cytopathic effect | >16 µg/mL |
| COC(=O)[C@]1(C)CCC[C@]2(C)c3ccc4[nH]c(C)nc4c3CCC12 | VERO | EC50 | plaque count | >4 µg/mL |
| OC[C@H]1O[C@@H](c2cncc(Br)c2)[C@@H](O)[C@@H]1O | VERO | EC50 | cytopathic effect | ≥100 µg/mL |
| Nc1ncnc2c1ncn2CCCC(O)CF | VERO | EC50 | cytopathic effect | >400 µg/mL |
| CC1(C)[C@@H](CCO)C[C@H]1n1nnc2c(N)nc(N)nc21 | VERO | EC50 | cytopathic effect | >400 µg/mL |
| CO[C@H](CO)[C@@H](O)CCn1cnc2c(=O)[nH]c(N)nc21 | VERO | EC50 | cytopathic effect | >400 µg/mL |
| CC1(C)[C@@H](CO)CC[C@@]1(C)Cn1nnc2c(N)ncnc21 | VERO | EC50 | cytopathic effect | >400 µg/mL |
| c1ccc(C2=Nn3c(nnc3-c3cn(-c4ccccc4)nc3-c3ccccc3)SC2)cc1 | VERO | EC50 | cytopathic effect | >16 µg/mL |
| N#Cc1cncc([C@@H]2O[C@H](CO)[C@H](O)[C@@H]2O)c1 | VERO | EC50 | cytopathic effect | ≥100 µg/mL |
| CC1(C)[C@@H](CO)CC[C@@]1(C)Cn1cnc2c(Cl)ncnc21 | VERO | EC50 | cytopathic effect | >400 µg/mL |
| C=CCc1nc(C)n2c(=O)[nH]cnc12 | VERO | EC50 | cytopathic effect | >200 µg/mL |
| CCOC(=O)C1=CSc2nnc(-c3cn(-c4ccccc4)nc3-c3ccccc3)n2N=C1N | VERO | EC50 | cytopathic effect | >16 µg/mL |
| Nc1ncnc2c1ncn2[C@@H]1O[C@H](C=NO)[C@@H](O)[C@H]1O | VERO | EC50 | cytopathic effect | >0.4 µg/mL |
| CC1(CO)CCC(Cn2nnc3c(=O)[nH]c(N)nc32)C1(C)C | VERO | EC50 | cytopathic effect | >200 µg/mL |
| S=c1[nH]n2c(-c3cn(-c4ccccc4)nc3-c3ccccc3)nnc2s1 | VERO | EC50 | cytopathic effect | >80 µg/mL |
| CC=NC(=N)c1nc(-c2cccc(C)c2)n(Cc2ccccc2)n1 | VERO | EC50 | cytopathic effect | >10 µg/mL |
| Nc1nc2c(ccn2[C@@H]2C[C@H](CO)[C@@H](O)[C@H]2O)c(=O)[nH]1 |  | MIC |  | >100 µg/mL |
| N#Cc1cncc([C@H]2O[C@H](CO)[C@H](O)[C@@H]2O)c1 | VERO | EC50 | cytopathic effect | ≥100 µg/mL |
| Nc1ncnc2c1ncn2[C@@H]1O[C@H](/C=N/O)C[C@H]1O | VERO | EC50 | cytopathic effect | >400 µg/mL |
| CC=NC(=N)c1nc(-c2ccccc2)n(C/C=C/c2ccccc2)n1 | VERO | EC50 | cytopathic effect | >4 µg/mL |
| COC(=O)[C@]1(C)CCC[C@]2(C)c3cc(Br)c4[nH]ccc4c3CCC12 | VERO | EC50 | plaque count | >4 µg/mL |
| CON=C[C@H]1O[C@@H](n2cnc3c(N)ncnc32)[C@H](O)[C@@H]1O | VERO | EC50 | cytopathic effect | >100 µg/mL |
| CC1(C)[C@@H](CCO)C[C@H]1n1nnc2c(=O)[nH]cnc21 | VERO | EC50 | cytopathic effect | >100 µg/mL |
| NC(=S)c1cncc([C@@H]2O[C@H](CO)[C@@H](O)[C@@H]2O)c1 | VERO | EC50 | cytopathic effect | ≥100 µg/mL |
| CC(=O)N[C@H]1[C@@H](OC(=O)NS(=O)(=O)OC[C@H]2O[C@@H](n3ccc(=O)[nH]c3=O)[C@H](OC(C)C)[C@@H]2OC(C)C)O[C@H](COC(=O)c2ccccc2)[C@@H](OC(=O)c2ccccc2)[C@@H]1OC(=O)c1ccccc1 | VERO | EC50 | plaque count | >100 µg/mL |
| CC=NC(=N)c1nc(-c2ccc(OC)cc2)n(Cc2ccccc2)n1 | VERO | EC50 | cytopathic effect | >10 µg/mL |
| O=c1[nH]n2c(-c3cn(-c4ccccc4)nc3-c3ccccc3)nnc2sc1=O | VERO | EC50 | cytopathic effect | >80 µg/mL |
| CC(C)O[C@@H]1[C@H](OC(C)C)[C@@H](COS(=O)(=O)NC(=O)O[C@H]2O[C@H](COC(=O)c3ccccc3)[C@H](OC(=O)c3ccccc3)[C@H](OC(=O)c3ccccc3)[C@H]2OC(=O)c2ccccc2)O[C@H]1n1ccc(=O)[nH]c1=O | VERO | EC50 | plaque count | 100 µg/mL |
| c1ccc(-c2nn3c(-c4cn(-c5ccccc5)nc4-c4ccccc4)nnc3s2)cc1 | VERO | EC50 | cytopathic effect | >16 µg/mL |
| CC(C)O[C@@H]1[C@H](OC(C)C)[C@@H](COS(=O)(=O)NC(=O)O[C@H]2O[C@H](COCc3ccccc3)[C@@H](OCc3ccccc3)[C@H](OCc3ccccc3)[C@H]2OCc2ccccc2)O[C@H]1n1ccc(=O)[nH]c1=O | VERO | EC50 | plaque count | >100 µg/mL |
| OC[C@H]1O[C@H](c2cncc(Br)c2)[C@@H](O)[C@H]1O | VERO | EC50 | cytopathic effect | ≥100 µg/mL |
| Nc1ncnc2c1ncn2C(CF)CCCO | VERO | EC50 | cytopathic effect | >400 µg/mL |
| Nc1ncnc2c1ncn2[C@H]1C[C@H](O)[C@@H](/C=N/O)O1 | VERO | EC50 | cytopathic effect | >100 µg/mL |
| OC[C@H]1O[C@H](c2cncc(Br)c2)[C@@H](O)[C@@H]1O | VERO | EC50 | cytopathic effect | ≥100 µg/mL |
| Cc1cn(CC[C@H](O)CCO)c(=O)[nH]c1=O | VERO | EC50 | cytopathic effect | >400 µg/mL |

A second listing of 8 rows from above:

SMILES	cells	endpoint	read by	result
C=C(N=CC)c1nc(-c2cccc(OC)c2)n(C2O[C@H](CO)[C@@H](O)[C@H](O)[C@H]2O)n1	VERO	EC50	cytopathic effect	>200 µg/mL
NC1=CC(c2ccccc2)=Nn2c(nnc2-c2cn(-c3ccccc3)nc2-c2ccccc2)S1	VERO	EC50	cytopathic effect	>16 µg/mL
CC1(C)[C@@H](CCO)C[C@H]1n1nnc2c(=O)[nH]cnc21	VERO	EC50	cytopathic effect	>100 µg/mL
COC(=O)[C@]1(C)CCC[C@]2(C)c3cc(Br)c4[nH]ccc4c3CCC12	VERO	EC50	plaque count	>4 µg/mL
COC(=O)[C@]1(C)CCC[C@]2(C)c3cc(Br)c4nc[nH]c4c3CCC12	VERO	EC50	plaque count	>4 µg/mL
S=c1[nH]n2c(-c3cn(-c4ccccc4)nc3-c3ccccc3)nnc2s1	VERO	EC50	cytopathic effect	>80 µg/mL
N#Cc1cncc([C@H]2O[C@H](CO)[C@@H](O)[C@@H]2O)c1	VERO	EC50	cytopathic effect	≥100 µg/mL
Nc1ncnc2c1ncn2[C@H]1C[C@H](O)[C@@H](C=O)O1	VERO	EC50	cytopathic effect	>200 µg/mL